From PubChem BioAssay AID720580 (National Center for Advancing Translational Sciences (NCATS), 2013)
This is a selection; strong and weak results do not stand in their true shares. Records with an inconclusive call do not appear. Calls of active or inactive are those of the source. Calls come from the whole dose curve; tested in A549 cells.

assay: qHTS for Stage-Specific Inhibitors of Vaccinia Orthopoxvirus: Venus Reporter Primary qHTS; settings: Vaccinia virus Venus reporter expression, fluorescence; series mostly up to 36.5 µM; activity change, negative = inhibition: at the top concentration; note: nearly all actives have a fitted effect of over 30% in size
% is set by controls: 0 for no effect and ±100 for the full control effect; potency is the fitted concentration of half-maximal effect.

Compound | activity change, negative = inhibition | Potency
Cc1cc(C)cc(OP(C)(=O)Nc2ccc(SC(F)(F)F)cc2)c1 (centres undefined) | inactive: -20.8% | –
O=C(COc1ccccc1)OC1CN2CCC1CC2 (centres undefined) | inactive: -10.3% | –
CP(=O)(NC(=O)Nc1ccccc1)Oc1ccccc1 (centres undefined) | inactive: -11.4% | –
CP(=O)(Oc1ccccc1)OC(c1ccccc1)C(F)(F)F (centres undefined) | inactive: -10.8% | –
COC(=O)C1(C)COP(=O)(N2CCCC2)OC1 (centres undefined) | inactive: 9.51% | –
Cc1cccc(C)c1OP(C)(=O)Nc1ccc(SC(F)(F)F)cc1 (centres undefined) | inactive: -13% | –
COP1(=S)c2c(C)nn(CCC#N)c2N=C(c2ccc(F)cc2)N1C (centres undefined) | inactive: -22.8% | –
CP(=O)(Nc1ccccn1)Oc1ccc(Cl)cc1 (centres undefined) | inactive: -4.83% | –
CCOC(=O)c1ccc(NC(=O)C(C)(CCl)SC)cc1 (centres undefined) | inactive: -20.1% [at 7.34 µM] | –
CCOC(=O)c1ccc(NP(C)(=O)Oc2ccc(OC)cc2)cc1 (centres undefined) | inactive: -12.3% | –
O=[N+]([O-])c1cc([N+](=O)[O-])c(O)c([N+](=O)[O-])c1.c1ccc(Oc2ccncc2)cc1 | inactive: -5.52% [at 7.34 µM] | –
O=C(OC1CN2CCC1CC2)c1cccc([N+](=O)[O-])c1 (centres undefined) | inactive: -8.02% | –
CCOP(C)(=S)SCC(=O)NC(C)C(=O)O (centres undefined) | inactive: 32.5% | –
CC1CCOC(=O)C=CC=CC(=O)OC2CC3OC4C5OC5(C)C(O)CC4(COC(=O)C1O)C2(C)C31CO1 (centres undefined) | – | active: 282 nM
CCCCOc1ccc(C(=O)NCC2(N3CCCCC3)CCCCC2)cc1OC | inactive: 2.53% | –
COP(=O)(OC)N1CC1c1ccccc1 (centres undefined) | inactive: -3.52% | –
CC1CCNP(=O)(N(CCCl)CCCl)O1 (centres undefined) | inactive: -11.8% | –
CCOC(=O)Nc1ccc([As](=O)(O)O)c(O)c1 | inactive: 0.316% | –
O=C(O)C(=O)c1ccc(N(CCCl)CCCl)cc1.c1ccc(Nc2ccccc2)cc1 | inactive: -10% | –
CP(=O)(Nc1ccccc1Br)Oc1ccccc1 (centres undefined) | inactive: 1.17% | –
COc1ccccc1OP(C)(=O)Nc1ccccc1 (centres undefined) | inactive: -6.57% | –
O=P(Nc1ccccn1)(c1cccc2ccccc12)c1cccc2ccccc12 | inactive: 0.83% | –
Cc1cc(SC(NC=O)C(Cl)(Cl)Cl)ncn1 (centres undefined) | inactive: -11.5% | –
CCOC(=O)Nc1cccc([As](=O)(O)O)c1 | inactive: -14.6% | –
CP(=S)(Nn1cnnc1)Oc1ccccc1 (centres undefined) | inactive: 2.51% | –
Cc1ccc2nc3c(c(C)c2c1)CC(C(Cl)Cl)S3 (centres undefined) | inactive: -22.7% | –
Cc1cccc(C)c1OP(C)(N)=O (centres undefined) | inactive: -18.1% | –

Compound | activity change, negative = inhibition | Potency
ClCCN(CCCl)c1ccc(CC2C=CC=C2)cc1 | inactive: -20.1% | –
[N-]=[N+]=NC1CCCCC1NC(=O)c1cc([N+](=O)[O-])cc([N+](=O)[O-])c1 (centres undefined) | inactive: -11.6% | –
O=[N+]([O-])c1ccc(-c2cc([N+](=O)[O-])c(O)c([N+](=O)[O-])c2)cc1 | inactive: -13.3% | –
C[As](=O)(O)c1cccc(C(=O)O)c1 | inactive: -0.918% | –
O=[As](O)(c1ccc(O)cc1)c1ccccc1O | inactive: -7.24% | –
O=[N+]([O-])c1cc([N+](=O)[O-])c(Nc2cccnc2)c([N+](=O)[O-])c1 | inactive: -10.2% | –
Cc1cc(C)cc(OP(C)(N)=O)c1 (centres undefined) | inactive: -2.41% | –
COc1ccc(OP(C)(=O)Nc2cccc(F)c2)cc1 (centres undefined) | inactive: -10.4% | –
CCN(CC)C(=S)SC(NC=O)C(Cl)(Cl)Cl (centres undefined) | inactive: -11.5% | –
O=C(OC1CN2CCC1CC2)c1cccc2[nH]cnc12 (centres undefined) | inactive: 4.8% | –
COc1ccccc1OP(C)(=O)Nc1cc(Cl)ccc1C (centres undefined) | inactive: -6.16% | –
CC(C)NC(=O)NP(=O)(Oc1ccccc1)Oc1ccccc1 | inactive: -20.5% | –
Cc1ccc(NP(C)(=O)Oc2ccccc2)c(C)c1 (centres undefined) | inactive: -6.87% | –
COC(=O)C1(C)COP(=O)(N2CCCCCC2)OC1 (centres undefined) | inactive: -4.12% | –
COc1ccccc1OP(C)(=O)Nc1ccc(C)cc1 (centres undefined) | inactive: -7.53% | –
O=Cc1ccc(NCCCl)cc1 | inactive: -16.7% | –
ClCCSc1nnc(-c2cccnc2)o1 | inactive: -7.85% | –
CCOC(=O)c1ccc(NP(C)(=O)Oc2ccccc2)cc1 (centres undefined) | inactive: -11.5% | –
COc1cc(I)ccc1[As](=O)(O)O | inactive: -12.8% | –
COc1ccc2nc(NP(=O)(c3ccccc3)c3ccccc3)sc2c1 | inactive: -2.12% | –
O=P1(N(CCCl)CCCl)OCCCN1CCCl (centres undefined) | inactive: -5.16% | –
O=P1(N(CCCl)CCCl)Nc2ccccc2N1 | inactive: 1.48% | –
Cc1cc(=O)[nH]c(N[N+](=O)[O-])n1 | inactive: -18.2% | –
O=C(OC1CN2CCC1CC2)C12CC3CC(CC(C3)C1)C2 (centres undefined) | inactive: 62.7% | –
COc1ccccc1-c1ccccn1.O=[N+]([O-])c1cc([N+](=O)[O-])c(O)c([N+](=O)[O-])c1 | inactive: -5.19% | –
COc1ccc(N/C(=N/P(=O)(N2CCOCC2)N2CCOCC2)N2CCOCC2)cc1 | inactive: -8.3% | –
O=[N+]([O-])c1cc(Oc2ccc([N+](=O)[O-])cc2C(F)(F)F)cc([N+](=O)[O-])c1 | inactive: -7.33% | –
